A mixed list of measured activities; the numbers were collected in NIAID ChemDB.

All rows: whole-cell or culture tests; agent: Candida albicans; measure: zone

Blank or dashed fields: not listed here. Lines come from different laboratories, so protocols vary. Zone: diameter of growth inhibition.

| SMILES | dose | strain | result |
|---|---|---|---|
| Clc1ccc(-c2nn(-c3ccccc3)cc2C2CC(c3ccc(-c4ccccc4)cc3)=NN2c2ccccc2)cc1 | 500 µg/mL | MTCC 227 | 2 mm |
| Fc1ccc2c(c1)Sc1cccnc1N2CCCCCCN1c2ccc(F)cc2Sc2cccnc21 | 100 µg/mL | MTCC 227 | 13 mm |
| CCOC(=O)Cn1c(C(F)(F)C(F)(F)F)nc2ccc([N+](=O)[O-])cc21 | 500 µg/mL | MTCC 227 | 900 mm |
| O=[N+]([O-])c1ccc(-c2nnc(CN3CCC(n4nc5ccccc5n4)CC3)o2)cc1Cl | 900 µg/mL |  | 12.86 mm |
| Clc1ccc(C2=NN(c3ccccc3)C(c3cn(-c4ccccc4)nc3-c3ccc(Br)cc3)C2)c(Cl)c1 | 1000 µg/mL | MTCC 227 | 3 mm |
| c1ccc(-c2nnc(CN3CCC(n4nc5ccccc5n4)CC3)o2)cc1 | 900 µg/mL |  | 13.25 mm |
| Brc1ccc2c(c1)Sc1cccnc1N2C/C=C/CN1c2ccc(Br)cc2Sc2cccnc21 | 100 µg/mL | MTCC 227 | 10 mm |
| CCOC(=O)Cn1c(C(F)(F)F)nc2ccc([N+](=O)[O-])cc21 | 500 µg/mL | MTCC 227 | 450 mm |
| CC1(C)CC(=O)c2cc(-c3nnc4n3-c3nc5ccccc5nc3NN4)[nH]c2C1 | 1000 µg/mL | ATCC 2091 | 21 mm |
| Clc1ccc(-c2nn(-c3ccccc3)cc2C2CC(c3ccc(Cl)cc3Cl)=NN2c2ccccc2)cc1 | 500 µg/mL | MTCC 227 | 2 mm |
| CC(C)(C)c1cc(-c2nnc(CN3CCC(n4nc5ccccc5n4)CC3)o2)cc(C(C)(C)C)c1 | 300 µg/mL |  | 3.97 mm |
| COc1ccc(C2=CC(c3nnc4c(n3)Nc3ccccc3N4)C(c3cc4c([nH]3)CC(C)(C)CC4=O)=C2)cc1 | 1000 µg/mL | ATCC 2091 | 23 mm |
| CCOC(=O)Cn1c(C(F)(F)C(F)(F)F)nc2ccc(C(=O)c3ccccc3)cc21 | 500 µg/mL | MTCC 227 | 700 mm |
| O=S(=O)(NC(=S)Nc1ccccc1)c1ccc(N2N=C(c3ccc(Cl)cc3)CC2c2ccccc2)cc1 | 1000 µg/mL | ATCC 2091 | 28 mm |
| Cc1nc2ccccc2n(CC(=O)NN2C(=O)CSC2c2ccc(N(C)C)cc2)c1=O | 100 µg/mL |  | 24 mm |
| CSc1ccc(C2=NN(c3ccccc3)C(c3cn(-c4ccccc4)nc3-c3ccc(Cl)cc3)C2)cc1 | 500 µg/mL | MTCC 227 | 1 mm |
| CC(=O)Nc1ccc(Br)cc1Sc1ncccc1[N+](=O)[O-] | 100 µg/mL | MTCC 227 | 13 mm |
| NS(=O)(=O)c1ccc(C2C=C(c3ccc(Br)cc3)C(Br)C2c2ccccc2)cc1 | 1000 µg/mL | ATCC 2091 | 27 mm |
| C(=C\CN1c2ccccc2Sc2cccnc21)/CN1c2ccccc2Sc2cccnc21 | 100 µg/mL | MTCC 227 | 12 mm |
| COc1ccc(C2SCC(=O)N2NC(=O)Cn2c(=O)c(C)nc3ccccc32)cc1O | 100 µg/mL |  | 18 mm |
| COc1cccc(-c2nnc(CN3CCC(n4nc5ccccc5n4)CC3)o2)c1 | 600 µg/mL |  | 5.01 mm |
| Cc1nc2ccccc2n(CC(=O)NN2C(=O)CSC2c2ccccc2Cl)c1=O | 100 µg/mL |  | 12 mm |
| C#CCn1c(C(F)(F)F)nc2cc([N+](=O)[O-])ccc21 | 500 µg/mL | MTCC 227 | 700 mm |
| COc1ccc(C2SCC(=O)N2NC(=O)Cn2c(=O)c(C)nc3ccccc32)cc1OC | 50 µg/mL |  | 10 mm |
| CCOC(=O)Cn1c(C(F)(F)F)nc2ccc(C(=O)c3ccccc3)cc21 | 500 µg/mL | MTCC 227 | 400 mm |
| COc1ccc(-c2nn(-c3ccccc3)cc2C2CC(c3ccc(-c4ccccc4)cc3)=NN2c2ccccc2)cc1 | 500 µg/mL | MTCC 227 | 0 mm |
| Cc1nc2ccccc2n(CC(=O)NN2C(=O)CSC2c2ccc([N+](=O)[O-])cc2)c1=O | 100 µg/mL |  | 21 mm |

The last 3 rows once more:

CCOC(=O)Cn1c(C(F)(F)F)nc2ccc(C(=O)c3ccccc3)cc21 ; dose: 500 µg/mL ; strain: MTCC 227 ; result: 400 mm
COc1ccc(-c2nn(-c3ccccc3)cc2C2CC(c3ccc(-c4ccccc4)cc3)=NN2c2ccccc2)cc1 ; dose: 500 µg/mL ; strain: MTCC 227 ; result: 0 mm
Cc1nc2ccccc2n(CC(=O)NN2C(=O)CSC2c2ccc([N+](=O)[O-])cc2)c1=O ; dose: 100 µg/mL ; result: 21 mm